Measured values from several laboratories, pooled; numbers as filed in NIAID ChemDB.

Common to all: whole-cell or culture tests; species: HIV-1; endpoint: EC50

Two numbers with a dash give a range or band. ECn is the concentration giving n% inhibition of infection, replication or growth. Conditions beyond the fields shown may differ between rows. An empty or dashed field is not shown.

SMILES	changes	strain	cells	read by	value
C=C(C)[C@@H]1CC[C@]2(CO)CC[C@]3(C)[C@H](CC[C@@H]4[C@@]5(C)CC=C(c6ccc(C(=O)O)cc6Cl)C(C)(C)[C@@H]5CC[C@]43C)[C@@H]12	Gag P373S	NL4-3	MT-2	luciferase	1 µM
C[C@H]1CN(C(=O)c2ccccc2)CCN1C(C#N)C(=O)c1ccc2ccccc2n1	-	-	HeLa	luciferase / reporter gene	<1 µM
CCO[C@]12CS(=O)(=O)O[C@@]13[C@@H](CN2)O[C@@H](n1ccc(=O)[nH]c1=O)[C@@H]3O[Si](C)(C)C(C)(C)C	-	IIIB	MT-4	-	>50 µM
CCC1=C(C(=O)OCC2CCCCC2)C(c2cc(Br)cc(Br)c2)NC(=O)N1	-	-	CEM	p24 / ELISA	>5 µM
CCOCn1c(Cc2cc(C)cc(C)c2)c(CC)c(=O)[nH]c1=O	RT-Y181I	IIIB	CEM	syncytia	0.35 µM
CCc1c(C(=O)c2cc(C)cc(F)c2)n(Cc2ccncc2)c(=O)[nH]c1=O	-	-	MT-4	cytopathic effect / MTT	0.0101 µg/mL
Cc1cc(C)cc(Cc2c(C(C)C)c(=O)[nH]c(=O)n2COCCO)c1	-	IIIB	CEM	syncytia	0.17 µM
Cc1ccc(/C=C2\C(=O)Nc3ccc(S(=O)(=O)N(CC(C)C)C[C@@H](O)[C@H](Cc4ccccc4)NC(=O)O[C@H]4CO[C@H]5OCC[C@H]54)cc32)s1	-	LAI	MT-4	cytopathic effect / MTT	0.013 µM
CC(C)[C@H](NC(=O)OCc1ccccn1)C(=O)N[C@@H](Cc1ccccc1)[C@@H](O)C[C@H](Cc1ccccc1)NC(=O)OCc1cccnc1	PR-L10R M46I L63P 184V	NL4-3	MT-4	p24	<1.5 µM
Cc1c(C(=O)N[C@@H](Cc2ccccc2)[C@H](O)CN(CC(C)C)S(=O)(=O)c2ccc3nc(N)oc3c2)ccc2ncoc12	-	LAI WT	MT-4	cytopathic effect / MTT	0.0078 µM
C#Cc1ccc(Nc2nccc(Oc3c(C)cc(-c4cn(CCc5cccs5)nn4)cc3C)n2)cc1	K103N	IIIB	MT-4	MTT	0.37 µM
CC(C)CN(C[C@@H](O)[C@H](Cc1ccccc1)NC(=O)O[C@H]1CO[C@H]2OCC[C@H]21)S(=O)(=O)c1ccc2c(c1)ncn2CCN(C)C	-	LAI WT	MT-4	cytopathic effect / MTT	0.316 µM
CCS[C@]12CS(=O)(=O)O[C@@]13[C@@H](CN2)O[C@@H](n1cc(C)c(=O)[nH]c1=O)[C@@H]3O[Si](C)(C)C(C)(C)C	-	IIIB	MT-4	-	31.1 µM
CC(C)CN(C[C@@H](O)[C@H](Cc1ccccc1)NC(=O)OC1COC2OCCC12)S(=O)(=O)c1ccc2ncn(Cc3ccccc3)c2c1	-	LAI WT	MT-4	cytopathic effect / MTT	0.002 µM
CC(C)CN(C[C@@H](O)[C@H](Cc1ccccc1)NC(=O)O[C@H]1CO[C@H]2OCC[C@H]21)S(=O)(=O)c1ccc2c(c1)/C(=C/c1ccc(-c3ccccn3)cc1)C(=O)N2	PR-L10F M46I M71V I84V	F	MT-4	cytopathic effect / MTT	0.158 µM
O=c1[nH]c(=O)n([C@H]2C[C@H](O)[C@@H](CO)O2)cc1F	-	-	CEM + CEM TK-	-	9.1 µM
CCc1c(C(=O)c2cc(C)cc(C)c2)n(Cc2cc(C)nc(C)c2)c(=O)[nH]c1=O	-	-	MT-4	cytopathic effect / MTT	0.0026 µg/mL
C=C(C)[C@@H]1CC[C@]2(CO)CC[C@]3(C)[C@H](CC[C@@H]4[C@@]5(C)CC=C(c6csc(C(=O)O)c6)C(C)(C)[C@@H]5CC[C@]43C)[C@@H]12	Gag P373S	NL4-3	MT-2	luciferase	1 µM
CCc1c(Sc2ccccc2)n(COCc2ccccc2)c(=O)[nH]c1=O	RT-E138K	IIIB	CEM	syncytia	0.06 µM
CCCOC12CS(=O)(=O)OC13[C@@H](CN2)O[C@@H](n1cc(C)c(=O)[nH]c1=O)[C@@H]3O[Si](C)(C)C(C)(C)C	-	IIIB	MT-4	-	5.1 µM
CCC1=C(C(=O)OCC2CCCCC2)C(c2ccccc2Cl)NC(=O)N1	-	-	CEM	p24 / ELISA	>5 µM
O=C(C(=O)N1CCN(C(=O)c2ccccc2)CC1)c1ccc2cnccc2n1	-	-	HeLa	luciferase / reporter gene	<1 µM
Cc1cc(/C=C2\C(=O)Nc3ccc(S(=O)(=O)N(CC(C)C)C[C@@H](O)[C@H](Cc4ccccc4)NC(=O)O[C@H]4CO[C@H]5OCC[C@H]54)cc32)cc(C)c1O	-	LAI	MT-4	cytopathic effect / MTT	0.025 µM
Cc1cn([C@@H]2O[C@@H]3CN[C@@]4(OCCOc5ccccc5)CS(=O)(=O)O[C@@]34[C@H]2O)c(=O)[nH]c1=O	-	IIIB	CEM	-	>250 µM
Nc1ccn([C@H]2CC[C@@H](CO)O2)c(=O)n1	-	IIIB	PBLC	cytopathic effect / XTT	0.00033 µg/mL
Cc1cc(N)cc(C)c1OCC(=O)N[C@@H](Cc1ccccc1)[C@H](O)CN(CC(C)C)S(=O)(=O)c1ccc2c(c1)ncn2CCN(C)C	-	LAI WT	MT-4	cytopathic effect / MTT	1.995 µM
Cc1cn([C@@H]2O[C@@H]3CN[C@@]4(OCc5ccccc5)CS(=O)(=O)O[C@@]34[C@H]2O[Si](C)(C)C(C)(C)C)c(=O)[nH]c1=O	-	IIIB	CEM	-	>10 µM
CCC1=C(c2nc(C3CCCCC3)cs2)C(c2ccc(F)cc2)NC(=O)N1	-	-	CEM	p24 / ELISA	≤1 µM
COc1ncc(OC)c2c(C(=O)C(=O)N3CCN(C(=O)c4ccccc4)CC3)c[nH]c12	-	SF162.LS	PM1	p24 / ELISA	0.0047 µM
CCO[C@]12CS(=O)(=O)O[C@@]13[C@@H](CN2)O[C@@H](n1cc(C)c(=O)[nH]c1=O)[C@@H]3OC(C)=O	-	IIIB	MT-4	-	>250 µM
CCc1c(Sc2cc(C)cc(C)c2)n(COCCO)c(=O)[nH]c1=O	RT-K103N	IIIB TIBO R82913-resistant (RT K103N)	CEM	syncytia	0.35 µM
Cc1nc2sccn2c1C(=O)N[C@@H](Cc1ccccc1)[C@H](O)CN(CC(C)C)S(=O)(=O)c1ccc2nc(N)oc2c1	-	LAI WT	MT-4	cytopathic effect / MTT	0.2138 µM
CC(C)CN(C[C@@H](O)[C@H](Cc1ccccc1)NC(=O)O[C@H]1CO[C@H]2OCC[C@H]21)S(=O)(=O)c1ccc2c(c1)/C(=C/c1ccc(N(C)C)cc1)C(=O)N2	PR-L10F M46I M71V I84V	F	MT-4	cytopathic effect / MTT	0.14 µM
COC(=O)C(C)NP(=O)(OC[C@H]1S[C@H](n2cc(F)c(=O)[nH]c2=O)CC1O)Oc1ccccc1	-	-	CEM	-	>100 µM
CCC1=C(C(=O)OCC2CCCCC2)[C@H](c2ccc(OC(C)=O)cc2)NC(=O)N1	-	-	CEM	p24 / ELISA	≤1 µM
CC(C)CN(C[C@@H](O)[C@H](Cc1ccccc1)NC(=O)OCc1cccnc1)S(=O)(=O)c1ccc2nc(N)oc2c1	-	LAI WT	MT-4	cytopathic effect / MTT	0.0155 µM
CCN1C[C@H](C)N2C(=C(O)C3C(=O)N4Cc5ccc(F)cc5COCCCCCS(=O)(=O)N(C)C(=N4)C32)C1=O	-	LAII(IIIB)	MT-4	-	2.53 µM
CCc1c(C(=O)c2cc(C)cc(C)c2)n(Cc2ccnc(Cl)c2)c(=O)[nH]c1=O	-	-	MT-4	cytopathic effect / MTT	0.0017 µg/mL
CN1C(=O)[C@@H](c2cc(Cl)c(O)c(Cl)c2)NC(=O)[C@@H]2NC(=O)[C@H](c3cc(Cl)c(O)c(Cl)c3)NC(=O)[C@@H](NC(=O)C(=O)c3cc(Cl)c(O)c(Cl)c3)Cc3c[nH]c4cc(ccc34)-c3cc2cc(c3O)Oc2ccc(cc2)C[C@H]1C(=O)N[C@@H](C(=O)O)c1ccc(O)cc1	-	IIIB	MOLT-4	syncytia	0.5 µM
CC(C)CN(C[C@@H](O)[C@H](Cc1ccccc1)NC(=O)O[C@H]1CO[C@H]2OCC[C@H]21)S(=O)(=O)c1ccc2c(c1)/C(=C/c1cc3ccccc3[nH]1)C(=O)N2	-	LAI	MT-4	cytopathic effect / MTT	0.055 µM
CCOCn1c(Sc2cc(C)cc(C)c2)c(CC)c(=O)[nH]c1=O	RT-Y181C	IIIB	CEM	syncytia	0.3 µM
COC(=O)Nc1nc2ccc(S(=O)(=O)N(CC(C)C)C[C@@H](O)[C@H](Cc3ccccc3)NC(=O)COc3c(C)cc(C#N)cc3C)cc2[nH]1	-	LAI WT	MT-4	cytopathic effect / MTT	0.016 µM
Cc1cc(C)cc(C(=O)c2c(C(C)C)c(=O)[nH]c(=O)n2Cc2cc(C)nc(C)c2)c1	-	-	MT-4	cytopathic effect / MTT	0.001 µg/mL
COP(=O)(c1cc(C)cc(CCC#N)c1)c1c(C(N)=O)[nH]c2ccc(Cl)c(F)c12	K103N/Y181C	IIIB	MT-4	cytopathic effect	0.0047 µM
Cc1cc(C)cc(Sc2c(C(C)C)c(=O)[nH]c(=S)n2COCCO)c1	RT-L100I	IIIB (TIBO 82150) (RT-L100I)	CEM	syncytia	0.009 µM
CCc1c(C(=O)c2cc(Cl)cc(Cl)c2)n(Cc2ccncc2)c(=O)[nH]c1=O	-	-	MT-4	cytopathic effect / MTT	0.012 µg/mL
CCC1=C(C(=O)NCC(O)C2CCCCC2)C(c2cccc(O)c2)NC(=O)N1	-	-	CEM	p24 / ELISA	>5 µM
C=C(C)[C@@H]1CC[C@]2(CO)CC[C@]3(C)[C@H](CC[C@@H]4[C@@]5(C)CC=C(c6ccc(C(=O)O)c(O)c6)C(C)(C)[C@@H]5CC[C@]43C)[C@@H]12	Gag P373S	NL4-3	MT-2	luciferase	1 µM
C#Cc1ccc(Nc2nccc(Oc3c(C)cc(-c4cn(Cc5ccc(C(=O)OC)cc5)nn4)cc3C)n2)cc1	Y181C	IIIB	MT-4	MTT	2.11 µM
CCOCn1c(Sc2ccccc2)c(CC)c(=O)[nH]c1=S	RT-Y181I	IIIB	CEM	syncytia	3.1 µM
O=C(C(=O)N1CCN(C(=O)c2ccccc2)CC1)c1ccc2cccnc2c1	-	-	HeLa	luciferase / reporter gene	1–5 µM
CCC1=C(C(=O)c2ccc(OC)cc2)C(c2cccc(O)c2)NC(=O)N1	-	-	CEM	p24 / ELISA	>5 µM
Cc1cc(Cl)cc(C(=O)c2c(C(C)C)c(=O)[nH]c(=O)n2Cc2ccncc2)c1	-	-	MT-4	cytopathic effect / MTT	0.0023 µg/mL
O=C(Cc1ccc2ccccc2c1)N1CCN(C(=O)c2ccccc2)CC1	-	-	HeLa	luciferase / reporter gene	1–5 µM
CCOCn1c(Cc2ccccc2)c(CC)c(=O)[nH]c1=O	RT-E138K	IIIB	CEM	syncytia	0.09 µM
Cc1cn([C@@H]2O[C@@H]3CN[C@@]4(OCCOc5ccccc5)CS(=O)(=O)O[C@@]34[C@H]2O[Si](C)(C)C(C)(C)C)c(=O)[nH]c1=O	-	IIIB	CEM	-	>5 µM
CC(C)CN(C[C@@H](O)[C@H](Cc1ccccc1)NC(=O)OC1COC2OCCNC12)S(=O)(=O)c1ccc2nc(N)oc2c1	-	LAI WT	MT-4	cytopathic effect / MTT	0.6761 µM
CC(C)CN(C[C@@H](O)[C@H](Cc1ccccc1)NC(=O)O[C@H]1CO[C@H]2OCC[C@H]21)S(=O)(=O)c1ccc2c(c1)/C(=C/c1cccn1C)C(=O)N2	-	LAI	MT-4	cytopathic effect / MTT	0.015 µM
O=C(Cc1cccc2ccccc12)N1CCN(C(=O)c2ccccc2)CC1	-	-	HeLa	luciferase / reporter gene	1–5 µM
CC(C)N1C[C@H](C)N2C(=C(O)C3C(=O)N4Cc5ccc(F)cc5OCCCCCN(C)C(=O)C(=N4)C32)C1=O	-	LAII(IIIB)	MT-4	-	3.67 µM
CCC1=C(C(=O)OCC2CCCCC2)C(c2ccc(C(=O)OCc3ccccc3)cc2)NC(=O)N1	-	-	CEM	p24 / ELISA	>5 µM
CCN1C[C@H](C)N2C(=C(O)C3C(=O)N4Cc5ccc(F)cc5C(=O)NCCCCCCN(C)C(=N4)C32)C1=O	-	LAII(IIIB)	MT-4	-	152 µM
COc1ccc2cc([C@H](C)C(=O)N3CCN(C(=O)c4ccccc4)C[C@H]3C)ccc2c1	-	-	HeLa	luciferase / reporter gene	1–5 µM
CCN1C[C@H](C)N2C(=C(O)C3C(=O)N4Cc5ccccc5OCCCCS(=O)(=O)N(C)C(=N4)C32)C1=O	-	LAII(IIIB)	MT-4	-	0.92 µM
CC(C)=CCOc1cc(NC(=S)c2ccsc2C)ccc1Cl	-	BaL	MAC	p24	0.008 µM
CCC(/C=C1\C(=O)Nc2ccc(S(=O)(=O)N(CC(C)C)C[C@@H](O)[C@H](Cc3ccccc3)NC(=O)O[C@H]3CO[C@H]4OCC[C@H]43)cc21)CC	PR-L10F M46I M71V I84V	F	MT-4	cytopathic effect / MTT	0.104 µM
C=C(C(=O)N1CCN(C(=O)c2ccccc2)CC1)c1ccc2cc(OC)ccc2c1	-	-	HeLa	luciferase / reporter gene	<1 µM
Nc1nc(NC2CC2)c2ncn([C@H]3C=C[C@@H](CO)C3)c2n1	-	RT-K65R M184V	C8166	cytopathic effect / XTT	11.3 µM
C=C(C)[C@@H]1CC[C@]2(C(=O)O)CC[C@]3(C)[C@H](CC[C@@H]4[C@@]5(C)CC=C(c6ccc(O)cc6)C(C)(C)[C@@H]5CC[C@]43C)[C@@H]12	Gag P373S	NL4-3	MT-2	luciferase	1 µM
CCN1C[C@H](C)N2C(=C(O)C3C(=O)N4Cc5ccc(F)cc5C(=O)NCCCS(=O)(=O)N(C)C(=N4)C32)C1=O	-	LAII(IIIB)	MT-4	-	0.7 µM

Repeating the first 4 entries:

SMILES | changes | strain | cells | read by | value
C=C(C)[C@@H]1CC[C@]2(CO)CC[C@]3(C)[C@H](CC[C@@H]4[C@@]5(C)CC=C(c6ccc(C(=O)O)cc6Cl)C(C)(C)[C@@H]5CC[C@]43C)[C@@H]12 | Gag P373S | NL4-3 | MT-2 | luciferase | 1 µM
C[C@H]1CN(C(=O)c2ccccc2)CCN1C(C#N)C(=O)c1ccc2ccccc2n1 | - | - | HeLa | luciferase / reporter gene | <1 µM
CCO[C@]12CS(=O)(=O)O[C@@]13[C@@H](CN2)O[C@@H](n1ccc(=O)[nH]c1=O)[C@@H]3O[Si](C)(C)C(C)(C)C | - | IIIB | MT-4 | - | >50 µM
CCC1=C(C(=O)OCC2CCCCC2)C(c2cc(Br)cc(Br)c2)NC(=O)N1 | - | - | CEM | p24 / ELISA | >5 µM